Test system: NL4-3 HIV-1 strain
Assay: In vitro selection of resistance in MT4 cells under escalating drug pressure
Type: cell-based
Conditions: percentage of total missense mutations in IN

In the case of `Cc1ccc(C2CC2)c(-c2ccc3c(c2)CCCO3)c1[C@H](OC(C)(C)C)C(=O)O` [BDM-2], the “Frequency of IN mutation A128T, Early” value (18 dpi) is reported as 57%, the “Frequency of IN mutation A129T, Early” value (18 dpi) is reported as 0% and the “Frequency of IN mutation E170G, Early” value (18 dpi) is reported as 0%. The “Frequency of IN mutation H171Q, Early” value (18 dpi) was 0%, the “Frequency of IN mutation L172I/F, Early” value (18 dpi) was 0% and the “Frequency of IN mutation N222K, Early” value (18 dpi) was 7%. The “Frequency of IN mutation T125A, Early” value (18 dpi) was 0%, the “Frequency of IN mutation T174I, Early” value (18 dpi) was 0% and the “Frequency of IN mutation Y99H, Early” value (18 dpi) was 36%. For the same molecule, the “Frequency of IN mutation A128T, Intermediate” value (42 dpi) was 50%, the “Frequency of IN mutation A129T, Intermediate” value (42 dpi) was 0% and the “Frequency of IN mutation E170G, Intermediate” value (42 dpi) was 0%. For the same molecule, the “Frequency of IN mutation H171Q, Intermediate” value (42 dpi) was 0%, the “Frequency of IN mutation L172I/F, Intermediate” value (42 dpi) was 0% and the “Frequency of IN mutation N222K, Intermediate” value (42 dpi) was 19%. For the same molecule, the “Frequency of IN mutation T125A, Intermediate” value (42 dpi) was 0%, the “Frequency of IN mutation T174I, Intermediate” value (42 dpi) was 0% and the “Frequency of IN mutation Y99H, Intermediate” value (42 dpi) was 31%. The “Frequency of IN mutation A128T, Final” value (66 to 73 dpi) was 30%, the “Frequency of IN mutation A129T, Final” value (66 to 73 dpi) was 10% and the “Frequency of IN mutation E170G, Final” value (66 to 73 dpi) was 3%. For the same molecule, the “Frequency of IN mutation H171Q, Final” value (66 to 73 dpi) was 3%, the “Frequency of IN mutation L172I/F, Final” value (66 to 73 dpi) was 3% and the “Frequency of IN mutation N222K, Final” value (66 to 73 dpi) was 13%. The “Frequency of IN mutation T125A, Final” value (66 to 73 dpi) was 3%, the “Frequency of IN mutation T174I, Final” value (66 to 73 dpi) was 10% and the “Frequency of IN mutation Y99H, Final” value (66 to 73 dpi) was 23%.

In the case of `Cc1nc2ccccc2c(-c2ccc3c4c(ccnc24)CCO3)c1[C@H](OC(C)(C)C)C(=O)O` [BI-224436, reference compound], the “Frequency of IN mutation A128T, Early” value (18 dpi) is reported as 40%, the “Frequency of IN mutation E170G, Early” value (18 dpi) is reported as 20% and the “Frequency of IN mutation H171Q, Early” value (18 dpi) is reported as 20%. For the same molecule, the “Frequency of IN mutation N222K, Early” value (18 dpi) was 20%, the “Frequency of IN mutation T174I, Early” value (18 dpi) was 0% and the “Frequency of IN mutation Y99H, Early” value (18 dpi) was 0%. For the same molecule, the “Frequency of IN mutation A128T, Intermediate” value (42 dpi) was 33%, the “Frequency of IN mutation E170G, Intermediate” value (42 dpi) was 11% and the “Frequency of IN mutation H171Q, Intermediate” value (42 dpi) was 11%. The “Frequency of IN mutation N222K, Intermediate” value (42 dpi) was 11%, the “Frequency of IN mutation T174I, Intermediate” value (42 dpi) was 22% and the “Frequency of IN mutation Y99H, Intermediate” value (42 dpi) was 11%. For the same molecule, the “Frequency of IN mutation A128T, Final” value (66 to 73 dpi) was 38%, the “Frequency of IN mutation E170G, Final” value (66 to 73 dpi) was 0% and the “Frequency of IN mutation H171Q, Final” value (66 to 73 dpi) was 13%. For the same molecule, the “Frequency of IN mutation N222K, Final” value (66 to 73 dpi) was 13%, the “Frequency of IN mutation T174I, Final” value (66 to 73 dpi) was 25% and the “Frequency of IN mutation Y99H, Final” value (66 to 73 dpi) was 13%.
